Anti-infective test results gathered from many reports (values: NIAID ChemDB through PubChem).

All rows: whole-cell or culture tests; species: HIV-1; cell line: CEM; endpoint: EC50

An empty or dashed field is not shown.

SMILES	strain or isolate	mutations	method	result
CC(C)=CCOc1cc(NC(=S)c2ccoc2C)ccc1Cl	IIIB	RT-V179D	syncytia	0.006 ± 0.04 µM
CCOCn1c(Cc2cc(C)cc(C)c2)c(CC)c(=O)[nH]c1=O	IIIB		syncytia	0.009 µM
CCc1cc(NCc2nc3c(Cl)ccc(Cl)c3o2)c(=O)[nH]c1C	IIIB NEV(RT-V106A)	RT-V106A	syncytia	0.08 µg/mL
CC(C)=CCN1Cc2cc(Cl)cc3[nH]c(=S)n(c23)C[C@@H]1C	IIIB TIBO R82913 STR-1 (RT L100I Y181C)	RT-L100I Y181C	syncytia	4 µM
Cc1ccnc2c1NC(=O)c1cccnc1N2C1CC1	IIIB		syncytia	0.033 ± 0.011 µM
CC(C)=CCN1Cc2cc(Cl)cc3[nH]c(=S)n(c23)C[C@@H]1C	IIIB	RT-C181I	syncytia	≥15 µM
Cc1ccnc2c1NC(=O)c1cccnc1N2C1CC1	IIIB E-EBU(RT-Y181C)	RT-Y181C	syncytia	>50 µg/mL
CC[C@H]1C(=O)Nc2ccc(F)cc2N1C(=O)OC(C)C	E-2 (RT-V106A)	RT-V106A	cytopathic effect	0.01 µg/mL
Cc1ccnc2c1NC(=O)c1cccnc1N2C1CC1	IIIB-Pyridinone(0.1)(RT-V179N	RT-V179N	syncytia	0.1 µg/mL
CCNc1cccnc1N1CCN(C(=O)c2cc3cc(OC)ccc3[nH]2)CC1	IIIB PYR(RT-Y181C)	RT-Y181C	syncytia	0.4 µg/mL
Nc1ncnc2c1ncn2CCOCP(=O)(O)O	IIIB-TSAO-m3T(10)(RT-Y181C)	RT-Y181C	syncytia	6 µM
CC(C)=CCOc1cc(NC(=S)c2ccoc2C)ccc1Cl	Q-1 (RT T139K Y181C Y188D/Y)	RT-T139K Y181C Y188D/Y	cytopathic effect	0.06 µg/mL
Cc1ccnc2c1NC(=O)c1cccnc1N2C1CC1	IIIB	RT-Y181C	syncytia	8.6 µM
Cc1cn([C@H]2C[C@H](N=[N+]=[N-])[C@@H](CO)O2)c(=O)[nH]c1=O	IIIB nevirapine-resistant (RT Y181C)	RT-Y181C	syncytia	0.005 µM
CC(C)Nc1cccnc1N1CCN(C(=O)c2cc3ccccc3[nH]2)CC1	IIIB		syncytia	0.08 µM
CC(C)=CCN1Cc2cc(Cl)cc3[nH]c(=S)n(c23)C[C@@H]1C	IIIB	RT-V106A	cytopathic effect	0.5 µg/mL
Cc1cn([C@@H]2O[C@H](CO[Si](C)(C)C(C)(C)C)C3(OS(=O)(=O)C=C3N)[C@H]2O[Si](C)(C)C(C)(C)C)c(=O)n(C)c1=O	IIIB	RT-Y188C	cytopathic effect / XTT	2.4 µM
Cc1cn([C@@H]2O[C@H](CO[Si](C)(C)C(C)(C)C)C3(OS(=O)(=O)C=C3N)[C@H]2O[Si](C)(C)C(C)(C)C)c(=O)n(C)c1=O	IIIB		p24	0.024 µg/mL
Nc1ncnc2c1ncn2CC(CF)OCP(=O)(O)O	IIIB TIBO R82913 STR-B22 (RT L100I Y188H)	RT-L100I Y188H	syncytia	4 µM
Cc1cn([C@@H]2O[C@H](CO[Si](C)(C)C(C)(C)C)C3(OS(=O)(=O)C=C3N)[C@H]2O[Si](C)(C)C(C)(C)C)c(=O)n(C)c1=O	TSAO(RT-E138K)	RT-E138K	syncytia	>75 µM
Cc1ccnc2c1NC(=O)c1cccnc1N2C1CC1	IIIB TIBO R82913 STR-B22 (RT L100I Y188H)	RT-L100I Y188H	syncytia	1.4 µM
Fc1cccc(F)c1[C@@H]1SCc2nc3ccccc3n21	IIIB	RT-D138K	cytopathic effect / XTT	11.44 µM
CC(C)=CCN1Cc2cc(Cl)cc3[nH]c(=S)n(c23)C[C@@H]1C	IIIB NEV(RT-V106A)	RT-V106A	syncytia	0.5 µg/mL
CCc1cc(NCc2nc3c(Cl)ccc(Cl)c3o2)c(=O)[nH]c1C	IIIB-TSAO-m3T(10)(RT-Y181C)	RT-Y181C	syncytia	0.07 µg/mL
Cc1ccnc2c1NC(=O)c1cccnc1N2C1CC1	IIIB	RT-G190E	p24	>50 µg/mL
Nc1ccn([C@H]2CC[C@@H](CO)O2)c(=O)n1	IIIB TSAO-T(RT-E138K)	RT-E138K	syncytia	0.03 µM
C=C(C)OC(=O)N1c2cc(Cl)ccc2NC(=S)C1(C)C	NEV(RT-V106A)	RT-V106A	syncytia	0.16 µM
CCOCn1c(Sc2ccccc2)c(CC)c(=O)[nH]c1=O	IIIB HEPT-resistant (RT Y188H)	RT-Y188H	syncytia	≥20 µg/mL
CC(C)Nc1cccnc1N1CCN(C(=O)c2cc3ccccc3[nH]2)CC1	NEV(RT-V106A)	RT-V106A	syncytia	0.88 µM
Cc1cn([C@H]2C[C@H](N=[N+]=[N-])[C@@H](CO)O2)c(=O)[nH]c1=O	A-0 (RT-L100I)	RT-L100I	cytopathic effect	0.0128 µM
CC(C)Nc1cccnc1N1CCN(C(=O)c2cc3cc(NS(C)(=O)=O)ccc3[nH]2)CC1	IIIB	RT-Y181C	cytopathic effect	0.25 µg/mL
Cc1cn([C@@H]2O[C@H](CO[Si](C)(C)C(C)(C)C)[C@@]3(OS(=O)(=O)C=C3N)[C@H]2O[Si](C)(C)C(C)(C)C)c(=O)[nH]c1=O	IIIB TIBO R82913 STR-1 (RT L100I Y181C)	RT-L100I Y181C	syncytia	3 µM
Cc1occc1C(=S)Nc1ccc(Cl)c(/C=N/OC(C)(C)C)c1	IIIB	RT-M184V	p24	0.007 µg/mL
Cc1cn([C@@H]2O[C@H](CO[Si](C)(C)C(C)(C)C)C3(OS(=O)(=O)C=C3N)[C@H]2O[Si](C)(C)C(C)(C)C)c(=O)n(C)c1=O	IIIB		syncytia	0.03 µg/mL
CC(C)=CCN1Cc2cc(Cl)cc3[nH]c(=S)n(c23)C[C@@H]1C	Quin-0.02(RT-V106A)	RT-V106A	syncytia	1.6 µM
Fc1cccc(F)c1C1SCc2nc3ccccc3n21	IIIB	RT-L100I	cytopathic effect / XTT	3.12 µM
CC(C)=CCN1Cc2cc(Cl)cc3[nH]c(=S)n(c23)C[C@@H]1C	IIIB	RT-K103N	p24	≥5 µg/mL

5 of the rows above, restated:

SMILES | strain or isolate | mutations | method | result
CC(C)=CCN1Cc2cc(Cl)cc3[nH]c(=S)n(c23)C[C@@H]1C | Quin-0.02(RT-V106A) | RT-V106A | syncytia | 1.6 µM
Cc1ccnc2c1NC(=O)c1cccnc1N2C1CC1 | IIIB TIBO R82913 STR-B22 (RT L100I Y188H) | RT-L100I Y188H | syncytia | 1.4 µM
CCc1cc(NCc2nc3c(Cl)ccc(Cl)c3o2)c(=O)[nH]c1C | IIIB NEV(RT-V106A) | RT-V106A | syncytia | 0.08 µg/mL
CCc1cc(NCc2nc3c(Cl)ccc(Cl)c3o2)c(=O)[nH]c1C | IIIB-TSAO-m3T(10)(RT-Y181C) | RT-Y181C | syncytia | 0.07 µg/mL
Cc1cn([C@H]2C[C@H](N=[N+]=[N-])[C@@H](CO)O2)c(=O)[nH]c1=O | IIIB nevirapine-resistant (RT Y181C) | RT-Y181C | syncytia | 0.005 µM

ECn: concentration that inhibits the pathogen or its effect by n%. Lines come from different laboratories, so protocols vary.